Results of unrelated studies side by side (data: NIAID ChemDB).

Shared fields: cytotoxicity tests; cells: MT-2; measure: CC50

CCn is the concentration with n% toxicity to the cells.

compound	value
Nc1ccn([C@H]2CC[C@@H](CO)O2)c(=O)n1	>10 µg/mL
Cc1cn([C@H]2C=C[C@@](C)(CO)O2)c(=O)[nH]c1=O	>100 µM
COc1ccc2c(c1)C1(c3ccccc3)SCCN1C2=O	19.1 µM
Cc1cn([C@H]2C[C@H](CN=[N+]=[N-])[C@@H](CO)O2)c(=O)[nH]c1=O	>100 µM
COC(=O)[C@H](Cc1ccccc1)NC(=O)[C@H]1/C(=C/CO)O[C@@H]2CC(=O)N21	>100 µg/mL
O=C1NC(=O)C(CSCc2ccncc2)(CSCc2ccncc2)N1	>45 µM
CCc1cn([C@H]2C=C[C@@H](OCP(=O)(O)O)O2)c(=O)nc1N	>100 µg/mL
Nc1ccn([C@H]2CC[C@@H](CO)O2)c(=O)n1	44 µg/mL
CC(C)c1ccnc(Nc2ccc(C#N)c(Oc3cccc(/C=C/C#N)c3)c2)n1	4.1 µM
O=C(O[C@@H]1Cc2c(O)cc(O)cc2O[C@@H]1c1cc(O)c(O)c(O)c1-c1c([C@H]2Oc3cc(O)cc(O)c3C[C@H]2OC(=O)c2cc(O)c(O)c(O)c2)cc(O)c(O)c1O)c1cc(O)c(O)c(O)c1	>200 µM
Cc1cn([C@@H]2O[C@H](CO)[C@@H](CF)[C@H]2O)c(=O)[nH]c1=O	>100 µM
CC(C)CCC[C@@H](C)[C@H]1CC[C@H]2[C@@H]3CC[C@H]4C[C@@H](CCC=C(c5cc(Cl)c(O)c(C(=O)O)c5)c5cc(Cl)c(O)c(C(=O)O)c5)CC[C@]4(C)[C@H]3CC[C@]12C	200 µM
CCc1ccc(-c2c(C(OC(C)(C)C)C(=O)O)c(C)nc3sc4c(c23)CCCC4)c(O)c1	>20 µM
Cc1cn(C[C@@H](CN=[N+]=[N-])OCP(=O)(O)O)c(=O)[nH]c1=O	>500 µM
O=c1[nH]c(=O)n([C@H]2C=C[C@@H](OCP(=O)(O)O)O2)cc1I	>100 µg/mL
COCCNC(=O)[C@@H](NC(=O)[C@H](Cc1ccc(OC)c(OC)c1OC)C[C@H](O)[C@H](Cc1ccccc1)NC(=O)OC(C)(C)C)C(C)C	>100 µM
Cc1cn([C@H]2C=C[C@@H](CO)O2)c(=O)[nH]c1=O	100 µM
Nc1nc(=O)n([C@H]2C=C[C@@H](CO)O2)cc1F	~100 µM
C=Cc1cn([C@H]2C=C[C@@H](OCP(=O)(O)O)O2)c(=O)[nH]c1=O	76 µg/mL
O=C1NC(=O)C(CSC(=O)c2ccccc2)(CSC(=O)c2ccccc2)N1	>5 µM
C[Si](C)(CCCn1ccc2ccccc21)O[Si](C)(C)CCCn1ccc2ccccc21	14 µM
Cc1cn([C@H]2CC[C@@H](CO)O2)c(=O)[nH]c1=S	90 µM
Cc1nn([C@@H]2CO[C@H](CO)O2)c(=O)[nH]c1=O	>100 µM
Cc1ccc(C)c(CS(=O)(=O)c2cccc[n+]2[O-])c1	8 µg/mL
COc1ccnc(Nc2ccc(C#N)c(Oc3cc(Cl)cc(Cl)c3)c2)n1	0.27 µM
CC(C)[C@H](NC(=O)[C@H](Cc1ccccc1)C[C@H](O)[C@H](Cc1ccccc1)NC(=O)OC(C)(C)C)C(=O)N[C@@H](Cc1ccccc1)C(=O)N1CCOCC1	100 µM
CC[C@H](C)[C@H](NC(=O)c1ccccc1SSc1ccccc1C(=O)N[C@H](C(=O)O)[C@@H](C)CC)C(=O)O	123 µM
N#Cc1cc(Cl)cc(Oc2ccc(Cl)cc2OCCn2cc(F)c(=O)[nH]c2=O)c1	13 µM
C[Si](O)(O[Si](C)(CCCn1cnc2c(N)ncnc21)c1ccccc1)c1ccccc1	>100 µM
Cc1nn([C@H]2CO[C@@H](CO)O2)c(=O)[nH]c1=O	>100 µM
O=C(O)C(O)c1ccccc1	>300 µg/mL
N#Cc1cc(/C=C/Cl)cc(Oc2cc(Nc3nccc(C4CC4)n3)ccc2C#N)c1	1.9 µM
N#C/C=C/c1cc(F)cc(Oc2ccccc2OCCn2ccc(=O)[nH]c2=O)c1	85 µM
C[Si](C)(CCCNC(=O)c1ccccc1N)O[Si](C)(C)CCCNC(=O)c1ccccc1N	24 µM
Nc1nc2c(ncn2[C@H]2C=C[C@@H](CO)C2)c(=O)[nH]1	100 µg/mL
COc1ccc(C)cc1CS(=O)(=O)c1cccc[n+]1[O-]	26 µg/mL
CC1=C(C(=O)Nc2ccc(Cl)c(C(=O)OC(C)C)c2)SCCO1	>40 µM
O=C(O)C(O)c1ccccc1	>50 µg/mL
N#Cc1cc(C#N)cc(Oc2cc(Cl)ccc2OCCn2ccc(=O)[nH]c2=O)c1	77 µM
Cc1ccc(C)c(C(C)S(=O)(=O)c2ccc(C)c[n+]2[O-])c1	34 µg/mL
C=CC[C@H](NC(=O)[C@H](Cc1ccccc1)NS(=O)(=O)N1CCOCC1)C(=O)N[C@@H](CC1CCCCC1)[C@@H](O)C[C@H](C(=O)NCCCC)C(C)C	>13 µM
O=C1NC(=O)C(CSCCO)(CSCc2ccccc2)N1	>50 µM
CC(=O)N[C@@H](Cc1cccc2ccccc12)C(=O)N[C@H](C(=O)N[C@@H](CC(C)C)[C@@H](O)CC(=O)N[C@@H](CC(C)C)C(=O)N[C@@H](Cc1ccccc1)C(N)=O)C(C)C	>129 µM
CCOC(C(=O)O)c1c(C)nc2sc3c(c2c1-c1ccc(OC)nc1)CCCC3	>20 µM
CNC(=O)c1c(O)c2ncc(Cc3ccc(F)cc3)c3c2n(c1=O)C[C@](C)(c1nnc(C)o1)O3	5.3 µM
O=C(O[C@H]1Cc2c(O)cc(O)cc2O[C@@H]1c1cc(O)c(O)c(O)c1)c1cc(O)c(O)c(O)c1	155.8 µM
Nc1nc(=O)n([C@@H]2CC[C@H](CO)O2)cc1F	>100 µM
O=C1NC(=O)C(CS)(CS)N1	>0.8 µM
COc1ccnc(Nc2ccc(Cl)c(Oc3cc(Cl)cc(Cl)c3)c2)n1	4.3 µM
C[Si](C)(CCCn1ccnc1)O[Si](C)(C)CCCn1ccnc1	18 µM
CC(C)CN(C[C@@H](O)[C@H](Cc1ccccc1)NC(=O)O[C@H]1CO[C@H]2OCC[C@H]21)C1(C)C(=O)Nc2ccccc21	>10 µM
Cc1nc2sc3c(c2c(-c2cccc(C#N)c2)c1C(OC(C)(C)C)C(=O)O)CCCC3	>20 µM
COC(=O)c1cc(C(=O)OC)cc(N(C(=O)Nc2ccc(Cl)c(Cl)c2)C(C)c2nc3ccccc3c(=O)n2Cc2ccccc2)c1	0.67 µg/mL
Cc1nc2sc3c(c2c(-c2cccc(-n4cccn4)c2)c1C(OC(C)(C)C)C(=O)O)CCCC3	>20 µM
N#CC1C=Cc2ccccc2N1C(=O)c1ccc(Cl)cc1	>10 µM
Cc1ccc(-c2c([C@H](OC(C)(C)C)C(=O)O)c(C)nc3ccccc23)cc1C	>100 µM
Cc1cn([C@H]2C=C[C@@H](CO)O2)c(=O)[nH]c1=O	>100 µM
Cc1cn([C@H]2C=C[C@@H](COC(=O)CC3(C)C[C@](C)(O)CO3)O2)c(=O)[nH]c1=O	>1000 µM
Nc1nc2c(ncn2[C@H]2CC[C@@H](CO)C2)c(=O)[nH]1	>100 µg/mL
Cc1ccc(C)c(C(Cl)S(=O)(=O)c2cc(C)cc[n+]2[O-])c1	>4 µg/mL
Cn1nc(NS(C)(=O)=O)c2c(Cl)ccc(-n3c([C@H](Cc4cc(F)cc(F)c4)NC(=O)Cn4ccc(C5CC5)n4)nc4cc(-c5ccccc5F)ccc4c3=O)c21	>1 µM
Cc1cn([C@H]2C=C[C@@H](CO)O2)c(=O)[nH]c1=O	>100 µM
Cc1nc2sc3c(c2c(-c2cccc(-c4nccn4C)c2)c1C(OC(C)(C)C)C(=O)O)CCCC3	>20 µM
O=C(Oc1cc(O)cc2c1C[C@@H](OC(=O)c1cc(O)c(O)c(O)c1)[C@@H](c1cc(O)c(O)c(O)c1)O2)c1cc(O)c(O)c(O)c1	>200 µM
Cc1cn([C@@H]2O[C@H](CO)[C@@H](CN=[N+]=[N-])[C@@H]2O)c(=O)[nH]c1=O	>100 µM

A second listing of 6 rows from above:

COC(=O)[C@H](Cc1ccccc1)NC(=O)[C@H]1/C(=C/CO)O[C@@H]2CC(=O)N21 ; value: >100 µg/mL
N#CC1C=Cc2ccccc2N1C(=O)c1ccc(Cl)cc1 ; value: >10 µM
Nc1nc2c(ncn2[C@H]2CC[C@@H](CO)C2)c(=O)[nH]1 ; value: >100 µg/mL
Nc1ccn([C@H]2CC[C@@H](CO)O2)c(=O)n1 ; value: 44 µg/mL
Nc1nc2c(ncn2[C@H]2C=C[C@@H](CO)C2)c(=O)[nH]1 ; value: 100 µg/mL
CC(C)CN(C[C@@H](O)[C@H](Cc1ccccc1)NC(=O)O[C@H]1CO[C@H]2OCC[C@H]21)C1(C)C(=O)Nc2ccccc21 ; value: >10 µM

Lines come from different laboratories, so protocols vary.